Pooled drug test results. Numbers come from NIAID ChemDB, via PubChem.

Shared fields: growth or infection tests; agent: HIV-1

Rows are shuffled and stem from different studies. ECn: concentration that inhibits the pathogen or its effect by n%. An empty or dashed field is not shown.

SMILES,read by,strain,changes,endpoint,cells,value
CO[C@H]1N([C@H]2C=C[C@@H](CO)O2)C(=O)NC(=O)[C@]1(C)Br,cytopathic effect / XTT,,,EC50,CEM,54.6 µM
C=CCNC(=O)CSc1cnc(Nc2ccc(C#N)cc2)nc1Oc1c(C)cc(C#N)cc1C,MTT,,L100I,EC50,MT-4,0.023 µM
CCCCCCCCCCCCCCCC(=O)OCC(COC(=O)CCCCCCCCCCCCCCC)OC(=O)CCC(=O)O[C@@H](C[C@@H](Cc1ccccc1)C(=O)N[C@H]1c2ccccc2C[C@H]1OC(=O)CCC(=O)OC(COC(=O)CCCCCCCCCCCCCCC)COC(=O)CCCCCCCCCCCCCCC)CN1CCN(Cc2cccnc2)C[C@H]1C(=O)NC(C)(C)C,cytopathic effect / MTT,IIIB,,EC50,MT-4,>10 µM
O=C(O)c1cc(-n2cccc2)ccc1Cl,p24,93BR020 X4R5 CLADE F,,EC50,PBMC + MT-2,4.72 µM
CC(C)C[C@H](NC(=O)OC(C)(C)C)C(=O)O[C@@H]1Cc2ccccc2[C@@H]1NC(=O)[C@H](Cc1ccccc1)C[C@H](O)CN1CCN(Cc2cccnc2)C[C@H]1C(=O)NC(C)(C)C,cytopathic effect / MTT,IIIB,,EC50,MT-4,1.8 µM
CCn1cc(C(=O)O)c(=O)c2cc(F)c(N3CCN(CN4C(=O)/C(=N\c5ncc(Cc6cc(OC)c(OC)c(OC)c6)c(N)n5)c5cc(Cl)ccc54)CC3)cc21,cytopathic effect / MTT,IIIB,,EC50,MT-4,11.3 µg/mL
CCOC(=O)[C@H](C)NP(=O)(OC[C@@H]1OC[C@H](n2cnc3c(N)nc(N)nc32)O1)Oc1ccccc1,RT activity,LAV-1,,EC50,PBMC,0.25 µM
CC(=O)CSc1nc(Cc2cccc3ccccc23)c(C)c(=O)[nH]1,cytopathic effect,SO561945,RT-K103N Y181C,EC50,MT-4,≥58.2 µM
N#Cc1c2c3c(c4ccccc4n3CCO2)n(-c2ccc([N+](=O)[O-])cc2)c1=O,cytopathic effect / MTT,LAI,,EC50,MT-4,0.51 µM
COc1ncnc(NS(=O)(=O)c2ccc(N=C3C(=O)N(CN(C)C)c4ccccc43)cc2)c1OC,cytopathic effect / MTT,LAI,,EC50,MT-4,>2 µg/mL
CC(C)N(CC1Cn2c3ccccc3c3c2c(c(C#N)c(=O)n3-c2ccc([N+](=O)[O-])cc2)O1)C(C)C,cytopathic effect / MTT,LAI,,EC50,MT-4,1.96 µM
CCCC(=O)Nc1nc(N)nc2c1ncn2[C@H]1CO[C@@H](COP(=O)(N[C@@H](C)C(=O)OCC)Oc2ccccc2)O1,RT activity,LAV-1,,EC90,PBMC,15 µM
Cc1cc(C#N)cc(C)c1Oc1nc(Nc2ccc(C#N)cc2)ncc1SCC(N)=O,MTT,,RES056,EC50,MT-4,0.734 µM
COC(=O)[C@@H]1O[C@]12[C@@H](CO[Si](C)(C)C(C)(C)C)O[C@@H](n1ccc(=O)[nH]c1=O)[C@@H]2O[Si](C)(C)C(C)(C)C,cytopathic effect / trypan blue,IIIB,,EC50,MT-4,>10 µM
COc1ncnc(NS(=O)(=O)c2ccc(N=C3C(=O)N(CN4CCCCC4)c4ccc(C)cc43)cc2)c1OC,cytopathic effect / MTT,LAI,,EC50,MT-4,>10.7 µg/mL
COCCNC(=O)CSc1cnc(Nc2ccc(C#N)cc2)nc1Oc1c(C)cc(C#N)cc1C,MTT,,Y188L,EC50,MT-4,0.0207 µM
COc1ncnc(NS(=O)(=O)c2ccc(N=C3C(=O)N(CN4CCOCC4)c4ccccc43)cc2)c1OC,cytopathic effect / MTT,LAI,,EC50,MT-4,>1 µg/mL
Cn1c(=O)cc(Oc2nc(Nc3ccc(C#N)cc3)nc(Nc3cnccn3)n2)c2ccccc21,MTT,IIIB,,EC50,,>83.58 µg/mL
CC(C)(C)NC(=O)[C@@H]1CN(Cc2cccnc2)CCN1C[C@H](C[C@@H](Cc1ccccc1)C(=O)N[C@H]1c2ccccc2C[C@H]1O)OC(=O)NCCCCOc1ccc(C[C@H](N)C(=O)O)cc1,cytopathic effect / MTT,IIIB,,EC50,MT-4,12 µM
C[C@]1(Br)C(=O)NC(=O)N([C@H]2C=C[C@@H](CO)O2)[C@@H]1N=[N+]=[N-],cytopathic effect / XTT,,,EC50,CEM,0.918 µM
CC1(C)[C@@H](O[C@H]2O[C@H](C(=O)O)[C@@H](O)[C@H](O)[C@H]2O[C@@H]2O[C@H](C(=O)O)[C@@H](O)[C@H](O)[C@H]2O)CC[C@]2(C)[C@H]3C(=O)C=C4[C@@H]5C[C@@](C)(C(=O)O)CC[C@]5(C)CC[C@@]4(C)[C@]3(C)CC[C@@H]12,cytopathic effect,,,EC50,MT-4,150 µM
COc1cc(-c2nnc(Sc3nc(Nc4ccc(C#N)cc4)nc(Oc4cc(=O)n(C)c5ccccc45)n3)o2)cc(OC)c1OC,MTT,IIIB,,EC50,,>65.13 µg/mL
CC(C)(C)[Si](C)(C)OC[C@H]1O[C@@H](n2ccc(=O)[nH]c2=O)[C@H](O[Si](C)(C)C(C)(C)C)/C1=C/CO,cytopathic effect / trypan blue,IIIB,,EC50,MT-4,>2 µM
Cn1c(=O)cc(Oc2nc(Nc3ccc(C#N)cc3)nc(Oc3cc(=O)oc4ccccc34)n2)c2ccccc21,MTT,IIIB,,EC50,,>69.2 µg/mL
Cc1cc(C#N)cc(C)c1Oc1nc(Nc2ccc(C#N)cc2)ncc1SCC(=O)NC1CC1,MTT,,F227L V106A,EC50,MT-4,0.106 µM
CCOC(=O)CSc1nc(Cc2cccc3ccccc23)c(C)c(=O)[nH]1,cytopathic effect,SO561945,RT-K103N Y181C,EC50,MT-4,≥317 µM
CCn1cc(C(=O)O)c(=O)c2cc(F)c(N3CCN(CN4C(=O)/C(=N\c5ncc(Cc6cc(OC)c(OC)c(OC)c6)c(N)n5)c5ccccc54)CC3)cc21,cytopathic effect / MTT,IIIB,,EC50,MT-4,>66 µg/mL
O=S(=O)(O)c1cc(O)c2c(NS(=O)(=O)c3ccc(-c4ccc(S(=O)(=O)Nc5cc(S(=O)(=O)O)cc6cc(S(=O)(=O)O)cc(O)c56)cc4)cc3)cc(S(=O)(=O)O)cc2c1,cytopathic effect,IIIB,,EC50,MT-4,8.1 µg/mL
Cc1cn([C@@H]2O[C@H](CO[Si](C)(C)C(C)(C)C)C3(O[C@H]3C(N)=O)[C@H]2O[Si](C)(C)C(C)(C)C)c(=O)[nH]c1=O,RT activity,LAI,,EC50,PBMC,7 µM
CC(C)(C)NC(=O)[C@@H]1CN(Cc2cccnc2)CCN1C[C@@H](O)C[C@@H](Cc1ccccc1)C(=O)N[C@H]1c2ccccc2C[C@H]1OC(=O)CCCCOc1ccc(C[C@H](NC(=O)OC(C)(C)C)C(=O)O)cc1,RT activity,LAI,,EC50,CEM,0.22 µM
C#CCNC(=O)CSc1cnc(Nc2ccc(C#N)cc2)nc1Oc1c(C)cc(C#N)cc1C,MTT,,Y188L,EC50,MT-4,0.0193 µM
CCOC(=O)c1cc(C(=O)c2ccccc2N)n2ccc(C(=O)NCc3ccccn3)cc12,p24 / antigen,,,EC50,H9,45.5 µM
N#Cc1c2c3c(c4ccccc4n3CC(CN3CCCCC3)O2)n(-c2ccc([N+](=O)[O-])cc2)c1=O,cytopathic effect / MTT,LAI,,EC50,MT-4,0.27 µM
CCCCCC(=O)Nc1nc(N)nc2c1ncn2[C@H]1CO[C@@H](COP(=O)(N[C@@H](C)C(=O)OCC)Oc2ccccc2)O1,RT activity,LAV-1,,EC90,PBMC,33 µM
Cc1cn([C@H]2C=C[C@@H](CO)O2)c(=O)nc1N,p24 / ELISA,LAV,,EC50,CEM-F + CEM,1.8 µg/mL
Cc1cc(C#N)cc(C)c1Oc1nc(Nc2ccc(C#N)cc2)ncc1SCC(=O)NCC1CCCO1,MTT,,Y188L,EC50,MT-4,0.042 µM
CCCCCCCCCC(=O)Nc1nc(N)nc2c1ncn2[C@H]1CO[C@@H](COP(=O)(N[C@@H](C)C(=O)OCC)Oc2ccccc2)O1,RT activity,LAV-1,,EC90,PBMC,9.4 µM
CN1N=C(N)c2cn([C@@H]3O[C@H](COP(=O)(O)O)[C@@H](O)[C@H]3O)c3ncnc1c23,syncytia,A17,RT-K103N Y181C,EC50,CEM + CEM-SS,0.0036 µM
Cn1c(=O)cc(Oc2nc(Nc3ccc(C#N)cc3)nc(Oc3cc(=O)n(C)c4ccccc34)n2)c2ccccc21,MTT,IIIB,,EC50,,>79.48 µg/mL
CCOC(=O)c1cc(C(=O)c2ccccc2)n2ccc(C(=O)NCc3cccnc3)cc12,p24 / antigen,,,EC50,H9,54.3 µM
Cc1ccnc(SC(F)(F)c2nc3ccccc3o2)n1,,OC/100(RT-L100I,RT-L100I,EC50,,0.38 µM
CCc1nc(NCN2C(=O)C(=Nc3ccc(S(=O)(=O)Nc4ncnc(OC)c4OC)cc3)c3cc(C)ccc32)nc(N)c1-c1ccc(Cl)cc1,cytopathic effect / MTT,LAI,,EC50,MT-4,>8 µg/mL
FC(F)(Sc1ncccn1)c1nc2ccccc2o1,cytopathic effect / XTT,RF,,EC50,CEM + CEM-SS,3.14 µM
Cc1cn([C@H]2CC[C@@H](CO)[C@@H]2F)c(=O)[nH]c1=O,,RF,,EC50,MT-4,100 µg/mL
Cc1cn([C@H]2C=C[C@@H](COC(=O)c3ccccc3)O2)c(=O)[nH]c1=S,p24 / ELISA,LAV,,EC50,CEM-F + CEM,0.5 µg/mL
COc1ncnc(NS(=O)(=O)c2ccc(N=C3C(=O)N(CN4CCCC4)c4ccc(C)cc43)cc2)c1OC,cytopathic effect / MTT,LAI,,EC50,MT-4,>22.6 µg/mL
Cc1cn([C@H]2C=C[C@@H](COC(=O)C3=CN(C)C=CC3)O2)c(=O)[nH]c1=O,p24 / ELISA,LAV,,EC50,CEM-F + CEM,<1 µg/mL
Cc1cc(C#N)cc(C)c1Oc1nc(Nc2ccc(C#N)cc2)ncc1SCC(=O)Nc1ccc(S(C)(=O)=O)cc1,MTT,,F227L V106A,EC50,MT-4,0.3592 µM
CCn1cc(C(=O)O)c(=O)c2cc(F)c(N3CCN(CN4C(=O)C(=Nc5ccc(S(=O)(=O)Nc6ncnc(OC)c6OC)cc5)c5cc(Br)ccc54)CC3)cc21,cytopathic effect / MTT,IIIB,,EC50,MT-4,>34 µg/mL
Cc1cc(C#N)cc(C)c1Oc1nc(Nc2ccc(C#N)cc2)ncc1SCC(=O)NCc1ccc(O)cc1,MTT,,RES056,EC50,MT-4,0.3858 µM
Cc1ccc(C(=O)CSc2nc(Cc3cccc4ccccc34)c(C)c(=O)[nH]2)cc1,cytopathic effect,SO561945,RT-K103N Y181C,EC50,MT-4,≥251 µM
CCCCCCCCCCCCCCCC(=O)Nc1nc(N)nc2c1ncn2[C@H]1CO[C@@H](COP(=O)(N[C@@H](C)C(=O)OCC)Oc2ccccc2)O1,RT activity,LAV-1,,EC50,PBMC,0.083 µM
CC(C)(C)[Si](C)(C)OC[C@H]1O[C@@H](n2ccc(=O)[nH]c2=O)[C@H](O[Si](C)(C)C(C)(C)C)[C@@]12O[C@H]2C(=O)NO,cytopathic effect / trypan blue,IIIB,,EC50,MT-4,>10 µM
CC1=[N+](C)N(c2ccccc2)C(=O)C1Nc1nc(Nc2ccc(C#N)cc2)nc(Oc2cc(=O)n(C)c3ccccc23)n1,MTT,IIIB,,EC50,,>125 µg/mL
COCC(=O)OC[C@@H]1C=C[C@H](n2cc(C)c(=O)[nH]c2=O)O1,p24 / ELISA,LAV,,EC50,CEM-F + CEM,0.4 µg/mL
CC(C)(C)[Si](C)(C)O[C@H]1[C@H](n2ccc(=O)[nH]c2=O)O[C@H](CO)C1(O)C(N=[N+]=[N-])C(N)=O,cytopathic effect / trypan blue,IIIB,,EC50,MT-4,≥250 µM
CC(C)(C)NC(=O)[C@@H]1CN(Cc2cccnc2)CCN1C[C@H](C[C@@H](Cc1ccccc1)C(=O)N[C@H]1c2ccccc2C[C@H]1OC(=O)CCCCOc1ccc(C[C@H](NC(=O)OC(C)(C)C)C(=O)O)cc1)OC(=O)CCCCOc1ccc(C[C@H](NC(=O)OC(C)(C)C)C(=O)O)cc1,RT activity,LAI,,EC50,CEM,>1 µM
CC(C)(C)[Si](C)(C)OC[C@H]1O[C@@H](n2ccc(=O)[nH]c2=O)[C@H](O[Si](C)(C)C(C)(C)C)C1(O)[C@H](N=[N+]=[N-])C(N)=O,cytopathic effect / trypan blue,IIIB,,EC50,MT-4,>10 µM
N#Cc1c2c3c(c4ccccc4n3CCN2)n(-c2ccc([N+](=O)[O-])cc2)c1=O,cytopathic effect / MTT,LAI,,EC50,MT-4,3.05 µM
CO[C@H]1N([C@H]2C=C[C@@H](CO)O2)C(=O)NC(=O)[C@]1(C)I,cytopathic effect / XTT,,,EC50,CEM,0.375 µM
CC1(C)CC(NC(=O)C(=O)Nc2ccc(Cl)cc2)CC(C)(C)N1,p24,IIIB,,EC50,MT-2,6.51 µM
Cc1cn(N2C[C@H](CO)[C@H]2CO)c(=O)[nH]c1=O,antigen,,,EC50,MT-4,>100 µg/mL
CCn1cc(C(=O)O)c(=O)c2cc(F)c(N3CCN(CN4C(=O)/C(=N\c5ncc(Cc6cc(OC)c(OC)c(OC)c6)c(N)n5)c5cc(Br)ccc54)CC3)cc21,cytopathic effect / MTT,IIIB,,EC50,MT-4,13.9 µg/mL
Cc1c(OC(=O)CCCCOc2ccc(C[C@H](NC(=O)OC(C)(C)C)C(=O)O)cc2)cccc1C(=O)N[C@@H](CSc1ccccc1)[C@H](O)CN1C[C@H]2CCCC[C@H]2C[C@H]1C(=O)NC(C)(C)C,cytopathic effect / MTT,IIIB,,EC50,MT-4,0.116 µM
CCOC(=O)c1cc(C(=O)N2CCOCC2)n2ccc(C(=O)NCc3ccccn3)cc12,p24 / antigen,,,EC50,H9,>500 µM

5 of the rows above, restated:

SMILES	read by	strain	changes	endpoint	cells	value
CCOC(=O)CSc1nc(Cc2cccc3ccccc23)c(C)c(=O)[nH]1	cytopathic effect	SO561945	RT-K103N Y181C	EC50	MT-4	≥317 µM
COc1ncnc(NS(=O)(=O)c2ccc(N=C3C(=O)N(CN4CCCCC4)c4ccc(C)cc43)cc2)c1OC	cytopathic effect / MTT	LAI		EC50	MT-4	>10.7 µg/mL
N#Cc1c2c3c(c4ccccc4n3CC(CN3CCCCC3)O2)n(-c2ccc([N+](=O)[O-])cc2)c1=O	cytopathic effect / MTT	LAI		EC50	MT-4	0.27 µM
COc1ncnc(NS(=O)(=O)c2ccc(N=C3C(=O)N(CN4CCCC4)c4ccc(C)cc43)cc2)c1OC	cytopathic effect / MTT	LAI		EC50	MT-4	>22.6 µg/mL
Cc1ccnc(SC(F)(F)c2nc3ccccc3o2)n1		OC/100(RT-L100I	RT-L100I	EC50		0.38 µM